Measured values from several laboratories, pooled; numbers as filed in NIAID ChemDB.

All rows: growth or infection tests; species: Aspergillus fumigatus

MIC50, MIC90 and the like: level of inhibition, or share of isolates inhibited. Neighbouring rows are from separate reports. Blank or dashed fields: not listed here.

structure | changes | strain or isolate | read-out | method | value
Cc1ccc(C(C)C)cc1 | - | F17 | MIC | - | >20 µg/mL
O=c1cc(CO)occ1O | mpkC deletion | - | MIC99 | agar | >12800 µM
COc1cc(/C=N\N(C)Cc2cccc3ccccc23)ccc1O | - | - | MIC | - | >64 µg/mL
C[C@H]1[C@H](O)[C@@H](C)/C=C/C=C/C=C/C=C/C=C/C=C/C=C/[C@H](O[C@@H]2O[C@H](C)[C@@H](O)[C@H](N)[C@@H]2O)C[C@@H]2O[C@](O)(C[C@@H](O)C[C@@H](O)CC[C@H](O)[C@@H](O)C[C@@H](O)CC(=O)O[C@H]1C)C[C@H](O)[C@H]2C(=O)O | - | 94 isolates | Geometric mean MFC | - | 1.76 µg/mL
C[C@@H](c1ncncc1F)[C@](O)(Cn1cncn1)c1ccc(F)cc1F | - | 35 isolates | Geometric mean MIC | - | 0.41 µg/mL
Cc1ccc(/C=N\N(C)Cc2cccc3ccsc23)cc1 | - | - | MIC | - | >64 µg/mL
C[C@H]1[C@H](O)[C@@H](C)/C=C/C=C/C=C/C=C/C=C/C=C/C=C/[C@H](O[C@@H]2O[C@H](C)[C@@H](O)[C@H](N)[C@@H]2O)C[C@@H]2O[C@](O)(C[C@@H](O)C[C@@H](O)CC[C@H](O)[C@@H](O)C[C@@H](O)CC(=O)O[C@H]1C)C[C@H](O)[C@H]2C(=O)O | - | - | MIC | - | 0.5 µg/mL
C[C@H]1[C@H](O)[C@@H](C)/C=C/C=C/C=C/C=C/C=C/C=C/C=C/[C@H](O[C@@H]2O[C@H](C)[C@@H](O)[C@H](N)[C@@H]2O)C[C@@H]2O[C@](O)(C[C@@H](O)C[C@@H](O)CC[C@H](O)[C@@H](O)C[C@@H](O)CC(=O)O[C@H]1C)C[C@H](O)[C@H]2C(=O)O | - | 35 isolates | Geometric mean MIC | - | 0.87 µg/mL
CN(Cc1cccc2ccsc12)/N=C\c1ccc(Cl)cc1 | - | - | MIC | - | >64 µg/mL
C[C@H]1[C@H](O)[C@@H](C)/C=C/C=C/C=C/C=C/C=C/C=C/C=C/[C@H](O[C@@H]2O[C@H](C)[C@@H](O)[C@H](N)[C@@H]2O)C[C@@H]2O[C@](O)(C[C@@H](O)C[C@@H](O)CC[C@H](O)[C@@H](O)C[C@@H](O)CC(=O)O[C@H]1C)C[C@H](O)[C@H]2C(=O)O | - | 35 isolates | MIC90 | - | 2 µg/mL
CCN1CCC(O)(/C=C/c2ccc(Cl)cc2)C(C(=O)/C=C/c2ccc(Cl)cc2)C1 | - | 18 strains (amphotericin B-resistant) | MIC50 | - | 5.84 µg/mL
CN(Cc1cccc2ccsc12)/N=C\c1ccc(F)cc1 | - | - | MIC | - | >64 µg/mL
C[C@@H]([C@H](N)C(=O)N[C@H](C(=O)O)[C@H]1O[C@@H](n2ccc(=O)[nH]c2=O)[C@H](O)[C@@H]1O)[C@H](O)c1ccc(O)cn1 | - | 10AF | MIC | - | 800 µg/mL
C[C@H]1[C@H](O)[C@@H](C)/C=C/C=C/C=C/C=C/C=C/C=C/C=C/[C@H](O[C@@H]2O[C@H](C)[C@@H](O)[C@H](N)[C@@H]2O)C[C@@H]2O[C@](O)(C[C@@H](O)C[C@@H](O)CC[C@H](O)[C@@H](O)C[C@@H](O)CC(=O)O[C@H]1C)C[C@H](O)[C@H]2C(=O)O | - | Isolate AF65 | MFC | - | 4 µg/mL
CN(Cc1cccc2ccccc12)/N=C\c1ccc2ccccc2c1 | - | - | MIC | - | >64 µg/mL

2 of the rows above, restated:

C[C@H]1[C@H](O)[C@@H](C)/C=C/C=C/C=C/C=C/C=C/C=C/C=C/[C@H](O[C@@H]2O[C@H](C)[C@@H](O)[C@H](N)[C@@H]2O)C[C@@H]2O[C@](O)(C[C@@H](O)C[C@@H](O)CC[C@H](O)[C@@H](O)C[C@@H](O)CC(=O)O[C@H]1C)C[C@H](O)[C@H]2C(=O)O ; read-out: MIC ; value: 0.5 µg/mL
Cc1ccc(/C=N\N(C)Cc2cccc3ccsc23)cc1 ; read-out: MIC ; value: >64 µg/mL